The values that follow come from paper PMC10797010 (Frontiers in Molecular Biosciences, 2023).

The target in this assay is T1, wild-type RBD of SARS-CoV-2 spike protein (SARS-CoV-2, UniProt P0DTC2).
T1 construct: also called His-tagged RBD; source: bought: GenScript; not shown: His tag, C-terminal, kept
As to the kind of experiment: BLI. The settings on record: both partners purified.

Take STIEEQAKTFLDKFNHEAEDLFYQS (also called WT; WT peptide) [wild type ACE2-derived alpha-helix peptide]: the Kd was 33 µM.
